These results are taken from patent US6110901A (priority 1992, dated 2000).

In this test the target is Recombinant poliovirus RNA polymerase (Poliovirus type 1, UniProt P03300). Briefly: Poliovirus RNA-dependent RNA polymerase transcription assay with poly(A)-tailed RNA templates. The following applies: molar ratio 1:1 with the low molecular weight template.

For `Nc1ncnc2c1ncn2[C@@H]1O[C@H](COP(=O)(O)OP(=O)(O)OP(=O)(O)O)C[C@H]1O`, the “Inhibition of transcription with poliovirus RNA polymerase” value is “less active inhibitor”.
